Literature values in PMC9271922.

Molecular target: TLR4 (Homo sapiens) (UniProt O00206)

For “Spike protein trimer (from UniProt P0DTC2)”, the Kd is given as 300 nM.
